Record: PubChem BioAssay AID504761 (Drosophila RNAi Screening Center, 2011)
The deposit covers about 22,000 reagents; this is a random part of those that have a named target and a result. Of all reagents, 116 (0.52%) got an active call. 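Calls depend on retest data that are not deposited; infection was ranked per plate without normalising between plates; the unit of the infection score is not given.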 Raw values are not corrected between plates. Entries without a mark were called inactive. The numbers tell different reagents against one gene apart. Names joined by + are all predicted targets of the reagent. Reagent sequences are not shown. Not given: the amount of reagent, the time to read-out.

- Screen: 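Insect host genes that dengue virus relies on to spread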 (primary screen)
- System: D.Mel-2 cells from Drosophila
- Knock-down reagent: long dsRNA against Drosophila genes
- Challenge: infection with dengue virus type 2; dose and infection time not stated
- Measured: 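Cells stained for dengue envelope protein and imaged; percent of infected cells per well on duplicate plates, ranked by infection, with stained nuclei counted for cell number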
- Scale: infection score: higher = more virus-infected cells; cell count: higher = more cells in the well
- Hit rule: 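Very low infection ranking in both replicate wells (chance probability at most 0.065), then a retest showing infection dropped 1.5-fold or more at p below 0.05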
- Meaning of the calls: active = confirmed: knock-down lowers infection; inactive = not picked or not confirmed

no.	predicted target	reagent	infection score, replicate 1	infection score, replicate 2	cell count, replicate 1	cell count, replicate 2
1	CG16717	1	5.81	3.02	5391	6255
2	CG16717	2	3.34	2.18	1078	1557
3	Cog2	1	3.92	7.5	6636	6110
4	CG17698	1	14.4	10.8	4468	5843
5	CG12278	1	5.39		6294	420
6	CG15450	1	14.1	16.3	6026	5937
7	lig	1	4.08	9.51	4458	4796
8	lig	2	6.52	17.3	5935	5146
9	lig	3	3.84	4.22	5177	4906
10	CG9380	1	25.2	0.53	5517	562
11	Pgm2a	1	21.9	5.93	5648	6324
12	ps	1	1.26	4.37	7052	6545
13	ps	2	0.79	6.3	4826	3331
14	ps	3	1.26	5.27	6028	1157
15	ps	4		2.42	319	454
16	ps	5		21.7	341	3613
17	bbx + waw	1	2.08	1.48	6601	6535
18	bbx + waw	2		4.96	1266	6428
19	asp	1	3.15	5.15	7048	6370
20	Gr2a	1		0.98	378	7076
21	Tsp29Fa	1	2.14	1.06	5923	6612
22	Tsp29Fa	2	18.8	7.97	4006	3174
23	Or33c	1	17.2	12.3	5814	1947
24	CG33093	1	3.31	6.36	7089	6913

2 successive reagents from above, for reference:
no.	predicted target	reagent	infection score, replicate 1	infection score, replicate 2	cell count, replicate 1	cell count, replicate 2
23	Or33c	1	17.2	12.3	5814	1947
24	CG33093	1	3.31	6.36	7089	6913

Continued.
no.	predicted target	reagent	infection score, replicate 1	infection score, replicate 2	cell count, replicate 1	cell count, replicate 2
25	Cbp53E	1	9.91		5884	455
26	Cbp53E	2	5.05	1.63	6972	6497
27	LysB	1	2.13	5	6061	5885
28	Fuca	1	1.55	3.79	5750	6194
29	lmd	1	4.64	9.05	6333	6507
30	lmd	2	11.7	9.36	3275	1817
31	CG13558	1	5.22	8.36	6404	7085
32	CG13558	2	9.57	6.3	6667	6797
33	CG17782	1	3.62	7.02	6462	5545
34	Golgin245	1	24.3	13.9	6352	6076
35	Golgin245	2	9.47	1.28	5996	6971
36	Golgin245	3	15.4	9.36	6428	6324
37	Tsf1	1	8.47	6.11	6256	5960
38	Tsf1	2	11	18.6	5796	5399
39	Pvf1	1	1.36	2.85	6841	6976
40	sn	1	5.38	1.63	6277	6461
41	sn	2	13.9	1.26	2672	636
42	Socs36E	1	36.6	28.2	6232	6544
43	Socs36E	2	16.4	6.91	5316	6574
44	Arfrp1	1	1.78	6.17	6790	6448
45	CG32523	1	2.35	0.3	6292	5661
46	Lkb1	1	11.5	10.3	5749	5874
47	Mccc2	1	18.4	14.7	5319	4877
48	Pka-C2	1	2.38	3.28	4235	3991
49	Pka-C2	2	2.53	3.97	6692	7181
50	Pka-C2	3	9.76	20	5828	5339
51	CG15537	1	5.12	2.86	4548	6543
52	CG15537	2	3.32	1.72	6419	5993
53	CG3603	1	2.31	0.53	5706	6172
54	Pka-C3	1	5.14		5719	995
55	Pka-C3	2	1.04	2.2	6073	6010
56	Pka-C3	3	3.59	4.48	5675	6295
57	fax	1	5.72	11.9	6574	5243
58	fax	2	18.8	29.5	3711	5557
